Measured values from several laboratories, pooled; numbers as filed in NIAID ChemDB.

All rows: target-level tests

Lines come from different laboratories, so protocols vary. Inhibition is in % at the dose shown (toxicity tests: loss of growth or viability). An empty or dashed field is not shown. Two numbers with a dash give a range or band. ICn: concentration for n% inhibition.

| smiles | organism | strain or isolate | protein | endpoint | dose | result |
|---|---|---|---|---|---|---|
| Fc1ccc(N2CCN(c3cncc(-c4csc5ccccc45)n3)CC2)cc1 | Cytomegalovirus | - | UL97 kinase | inhibition | 1 µM | <50% |
| O=C(O)c1ccc(N2C(=O)C(=Cc3ccc(-c4c(F)c(F)nc(F)c4F)o3)SC2=S)cc1 | Bovine viral diarrhea virus | - | NS5 polymerase | IC50 | - | ≤1 µM |
| Nc1nc(N)c2c(n1)CCCc1cc(Cl)c(Cl)cc1-2 | Cryptosporidium parvum | TYPE 2 | Dihydrofolate reductase | IC50 | - | >10 µM |
| Fc1ccc(N2CCN(c3cncc(-c4ccc(C(F)(F)F)cc4)n3)CC2)cc1 | Cytomegalovirus | - | UL97 kinase | inhibition | 1 µM | <50% |
| O=C(O)C1=CCC(=CN2C(=O)C(=Cc3ccc(-c4cc(C(F)(F)F)ccc4Cl)o3)SC2=S)C=C1 | Bovine viral diarrhea virus | - | NS5 polymerase | IC50 | - | ≤1 µM |
| CC(C)N(C(=O)c1ccc(Cl)cc1Cl)c1cc(-c2nn[nH]n2)sc1C(=O)O | Hepatitis C virus | - | NS3 ATPase | IC50 | - | <5 µM |
| CN(Cc1ccc2nc(N)nc(N)c2n1)c1ccc(C(=O)NC2CCCCC2)cc1 | Cryptosporidium parvum | TYPE 2 | Dihydrofolate reductase | IC50 | - | 4.7 µM |
| CC(=O)N(Cc1cccc(Cl)c1)c1cc(-c2ccccc2)sc1C(=O)O | Hepatitis C virus | - | NS3 ATPase | IC50 | - | >20 µM |
| CCCCc1ccc(-c2ccc(C=C3SC(=S)N(c4ccc(C(=O)O)cc4)C3=O)o2)cc1 | Bovine viral diarrhea virus | - | NS5 polymerase | IC50 | - | ≤1 µM |
| COc1cc(NCc2cnc3nc(N)nc(N)c3n2)cc(OC)c1OC | Cryptosporidium parvum | TYPE 2 | Dihydrofolate reductase | IC50 | - | 1.3 µM |
| Clc1ccc(N2CCN(c3cncc(-c4csc5ccccc45)n3)CC2)cc1 | Cytomegalovirus | - | UL97 kinase | IC50 | - | <10 µM |
| COc1ccc(OC)c(CC2CCc3nc(N)nc(N)c3C2)c1 | Cryptosporidium parvum | TYPE 1 | Dihydrofolate reductase | IC50 | - | 0.33 µM |
| COc1cccc(N2CCN(c3cncc(-c4ccc(CO)cc4)n3)CC2)c1 | Cytomegalovirus | - | UL97 kinase | IC50 | - | <10 µM |
| CCCCc1ccc(Cc2nc3nc(N)nc(N)c3nc2Cc2cccc(CCCC)c2)cc1 | Cryptosporidium parvum | TYPE 1 | Dihydrofolate reductase | IC50 | - | >10 µM |
| O=C(O)CCN1C(=O)C(=Cc2ccc(-c3cc(Cl)cc(Cl)c3)o2)SC1=S | Bovine viral diarrhea virus | - | NS5 polymerase | IC50 | - | ≤1 µM |
| Cc1cccc(CC2CCc3nc(N)nc(N)c3C2)c1 | Cryptosporidium parvum | TYPE 1 | Dihydrofolate reductase | IC50 | - | 0.81 µM |
| COc1ccc(N2CCN(c3cncc(-c4cc5ccccc5s4)n3)CC2)cc1 | Cytomegalovirus | - | UL97 kinase | IC50 | - | <10 µM |
| Cc1ccc(C(=O)N(C)c2cc(-c3ccc(Cl)cc3)sc2C(=O)O)cc1 | Hepatitis C virus | - | NS3 ATPase | IC50 | - | 5–20 µM |
| CSc1ccc(-c2cncc(N3CCN(c4cccc(C)c4)C(C)C3)n2)cc1 | Cytomegalovirus | - | UL97 kinase | inhibition | 10 µM | >15% |
| CC(=O)c1ccc(-c2ccc(C=C3SC(=S)N(c4ccc(C(=O)O)cc4)C3=O)o2)cc1 | Bovine viral diarrhea virus | - | NS5 polymerase | IC50 | - | ≤1 µM |
| CCOc1ccc(-c2cncc(N3CCN(c4ccccc4)CC3)n2)cc1 | Cytomegalovirus | - | UL97 kinase | inhibition | 1 µM | <50% |
| Cc1ccccc1S(=O)(=O)Nc1cc(-c2ccc3[nH]ccc3c2)sc1C(=O)O | Hepatitis C virus | - | NS3 ATPase | IC50 | - | 5–20 µM |

2 of the rows above, restated:

smiles	organism	strain or isolate	protein	endpoint	dose	result
Cc1cccc(CC2CCc3nc(N)nc(N)c3C2)c1	Cryptosporidium parvum	TYPE 1	Dihydrofolate reductase	IC50	-	0.81 µM
CCCCc1ccc(Cc2nc3nc(N)nc(N)c3nc2Cc2cccc(CCCC)c2)cc1	Cryptosporidium parvum	TYPE 1	Dihydrofolate reductase	IC50	-	>10 µM